In patent US20130065259:

Legend:
[1] = tested on: BoNT/A cleavable peptide #116: [4-Mu]TRIDEANQRATK[DABCYL]-Nle
[2] = tested on: BoNT/A cleavable peptide #115: [5-Fam]TRIDEANQRATK[DABCYL]-Nle

In the case of “BoNT/A (form not stated where used: holotoxin or complex)”, the KM [1] is reported as 2.62 µM and the KM [2] is reported as 4.99 µM.
